Results of unrelated studies side by side (data: NIAID ChemDB).

Shared fields: growth or infection tests; species: HIV-1; endpoint: EC50

Rows are shuffled and stem from different studies.

{"structure": "CC(C)CN(C[C@@H](O)[C@H](Cc1ccccc1)NC(=O)O[C@H]1CO[C@H]2OCC[C@H]21)S(=O)(=O)c1ccc(-c2ccncc2)cc1", "strain": "LAI", "method": "cytopathic effect / MTT", "cell line": "MT-4", "value": "0.02 µM"}
{"structure": "Cc1noc(C)c1CNCC[C@@]12CC[C@]3(C)[C@H](CC[C@@H]4[C@@]5(C)CC[C@H](OC(=O)[C@H]6C[C@@H](C(=O)O)C6(C)C)C(C)(C)[C@@H]5CC[C@]43C)C1=C(C(C)C)C(=O)C2", "strain": "92HT599", "method": "p24 / ELISA", "cell line": "MT-2", "value": "<1 µM"}
{"structure": "CC(C)CN(C[C@@H](O)[C@H](Cc1ccccc1)NC(=O)O[C@H]1CO[C@H]2OCC[C@H]21)S(=O)(=O)c1ccc(-c2csc(NCCN3CCCC3)n2)cc1", "strain": "LAI", "method": "cytopathic effect / MTT", "cell line": "MT-4", "value": "0.013 µM"}
{"structure": "Cc1cn([C@H]2C=C[C@@H](CO)O2)c(=O)[nH]c1=O", "method": "cytopathic effect", "cell line": "MT-2", "value": "1.3 µM"}
{"structure": "Nc1ccc2c(O)c(Br)c(S(=O)(=O)O)cc2c1Br", "strain": "BaL", "method": "p24", "cell line": "PBMC", "value": "~125 µM"}
{"structure": "COc1cc(C(CO)C(O)c2cc(OC)c(O)c(OC)c2)ccc1O", "strain": "IIIB", "method": "MTT", "cell line": "C8166", "value": ">200 µg/mL"}
{"structure": "O=C(Nc1nc2ccc(C(F)(F)F)cc2s1)c1cnc(C(F)(F)F)s1", "strain": "IIIB", "method": "flow cytometry", "cell line": "PBMC", "value": "0.738 µM"}
{"structure": "CC(C)CN(C[C@@H](O)[C@H](Cc1ccccc1)NC(=O)O[C@H]1CO[C@H]2OCC[C@H]21)S(=O)(=O)c1ccc(-c2coc(-c3ccc(Br)cc3)n2)cc1", "strain": "LAI", "method": "cytopathic effect / MTT", "cell line": "MT-4", "value": "0.032 µM"}
{"structure": "CC/C=C\\C/C=C\\C/C=C\\CCCCCCCC(=O)OC[C@@H](CO[C@H]1O[C@H](CS(=O)(=O)O)[C@@H](O)[C@H](O)[C@H]1O)OC(=O)CCCCCCCCCCCCCCC", "method": "cytopathic effect / XTT", "cell line": "CEM", "value": "<100 µg/mL"}
{"structure": "Cc1cn(C(CF)CCCO)c(=O)[nH]c1=O", "strain": "IIIB", "method": "cytopathic effect", "cell line": "CEM", "value": ">100 µg/mL"}
{"structure": "COc1ccc(C(=O)NC(C)(C)CNCC[C@@]23CC[C@]4(C)[C@H](CC[C@@H]5[C@@]6(C)CC[C@H](OC(=O)[C@H]7C[C@@H](C(=O)O)C7(C)C)C(C)(C)[C@@H]6CC[C@]54C)C2=C(C(C)C)C(=O)C3)cc1", "strain": "92HT599", "method": "p24 / ELISA", "cell line": "MT-2", "value": "<1 µM"}
{"structure": "COc1ccc2ccc3c(c2c1)OC1(CCN(Cc2ccc(C#N)cc2)CC1)NC3=O", "method": "ELISA", "cell line": "OM-10.1", "value": "1.4 µM"}
{"structure": "O=C(O)C[C@@H]1C(=O)O[C@H]2[C@@H]3OC(=O)c4cc(O)c(O)c(O)c4-c4c(cc(O)c(O)c4O)C(=O)OC[C@H]2O[C@@H](OC(=O)c2cc(O)c(O)c(O)c2)[C@@H]3OC(=O)c2cc(O)c(O)c3c2[C@H]1[C@H](O)C(=O)O3", "strain": "IIIB", "method": "p24", "cell line": "H9", "value": "1 µg/mL"}
{"structure": "COC(=O)C[C@H](O)[C@@H](NC(=O)Oc1ccccc1)C(F)(F)F", "strain": "LAI", "method": "RT activity", "cell line": "CEM + CEM-SS", "value": ">100 µg/mL"}
{"structure": "Nc1nc(=O)n([C@H]2CC[C@H](CO)O2)cc1F", "strain": "RF", "method": "MTT", "cell line": "MT-4", "value": ">436 µM"}
{"structure": "COc1ccc(/C=C/C(=O)O[C@H]2[C@H](OC3OC=C(C(=O)O)[C@H]4CC[C@](C)(O)[C@@H]34)O[C@H](CO)[C@@H](O)[C@@H]2O)cc1", "strain": "SA", "method": "p24 / antigen / PCR", "cell line": "PBMC", "value": "0.1 µg/mL"}
{"structure": "C=CCOCn1c(C(=C)c2cc(C)cc(C)c2)c(CC)c(=O)[nH]c1=O", "strain": "IIIB", "method": "cytopathic effect / MTT", "changes": "RT-K103N Y181C", "cell line": "MT-4", "value": ">100 µM"}
{"structure": "CC(C)(C)NC(=O)[C@@H]1C[C@@H]2CCCC[C@@H]2CN1C[C@@H](O)[C@H](CSc1ccc2ccccc2c1)NC(=O)[C@H](CC(N)=O)NC(=O)c1ccc2ccccc2n1", "cell line": "CEM + CEM-SS", "value": "<0.0014 µM"}
{"structure": "C=C(c1cc(C)cc(C)c1)c1c(CC)c(=O)[nH]c(=O)n1COC/C=C/c1ccccc1", "strain": "IIIB", "method": "cytopathic effect / MTT", "cell line": "MT-4", "value": "0.03 µM"}
{"structure": "CC(=O)Nc1nc(-c2ccc(S(=O)(=O)N(CC(C)C)C[C@@H](O)[C@H](Cc3ccccc3)NC(=O)COc3c(C)cccc3C)cc2)cs1", "strain": "LAI", "method": "cytopathic effect / MTT", "cell line": "MT-4", "value": "5.012 µM"}
{"structure": "Nc1ccn([C@@H]2CC[C@H](CO)O2)c(=O)n1", "strain": "RF", "method": "syncytia", "cell line": "C8166", "value": "0.066 µM"}
{"structure": "O=C(O)C[C@H](O)[C@@H](NC(=O)Oc1ccccc1)C(F)(F)F", "strain": "LAI", "method": "RT activity", "cell line": "CEM + CEM-SS", "value": ">100 µg/mL"}
{"structure": "COc1cc(/C=C/C(=O)OC(Cc2cc(OC)c(OC)c(OC)c2)C(=O)O)ccc1O", "method": "MTT", "cell line": "HeLa", "value": "3.67 µM"}
{"structure": "COc1cc([C@H]2c3cc(O)c(OC)cc3C[C@@H](COC(C)=O)[C@@H]2CO)ccc1O", "strain": "IIIB", "method": "MTT", "cell line": "C8166", "value": "100.7 µg/mL"}
{"structure": "CCCc1cc(=O)oc2c3c(c4c(c12)OC(C)(C)C=C4)O[C@H](C)[C@@H](C)[C@@H]3O", "method": "cytopathic effect / MTT", "cell line": "CEM + CEM-SS", "value": "0.08 µM"}
{"structure": "Cc1cc(CNC[C@H](O)[C@@]23CC[C@]4(C)[C@H](CC[C@@H]5[C@@]6(C)CC[C@H](OC(=O)[C@H]7C[C@@H](C(=O)O)C7(C)C)C(C)(C)[C@@H]6CC[C@]54C)C2=C(C(C)C)C(=O)C3)n[nH]1", "strain": "92HT599", "method": "p24 / ELISA", "cell line": "MT-2", "value": "<1 µM"}
{"structure": "COc1cc([C@H]2c3cc(O)c(OC)cc3C[C@@H](CO)[C@@H]2CO)ccc1O", "strain": "IIIB", "method": "MTT", "cell line": "C8166", "value": ">200 µg/mL"}
{"structure": "CC(C)C1=C2[C@H]3CC[C@@H]4[C@@]5(C)CC[C@H](OC(=O)[C@H]6C[C@@H](C(=O)O)C6(C)C)C(C)(C)[C@@H]5CC[C@@]4(C)[C@]3(C)CC[C@@]2([C@@H](O)CNC(=O)C(CCCCN)NC(=O)c2ccc(Cl)cc2)CC1=O", "strain": "92HT599", "method": "p24 / ELISA", "cell line": "MT-2", "value": "<1 µM"}
{"structure": "COc1cc([C@H]2OC[C@H]3[C@@H]2CO[C@@H]3c2cc(OC)c(O[C@@H]3O[C@H](O)[C@@H](O)[C@H](O)[C@H]3O)c(OC)c2)cc(OC)c1O", "strain": "IIIB", "method": "MTT", "cell line": "C8166", "value": ">200 µg/mL"}
{"structure": "CCNc1nc(-c2ccc(S(=O)(=O)N(CC(C)C)C[C@@H](O)[C@H](Cc3ccccc3)NC(=O)COc3c(C)cc(Br)cc3C)cc2)cs1", "strain": "LAI", "method": "cytopathic effect / MTT", "cell line": "MT-4", "value": "25.1 µM"}
{"structure": "CCCc1cc(=O)oc2c3c(c4c(c12)OC(C)(C)CC4)O[C@H](C)[C@@H](C)C3=O", "method": "cytopathic effect / MTT", "cell line": "CEM + CEM-SS", "value": "2.93 µM"}
{"structure": "CC(C)(CN1CCCC1)NC(=O)[C@]12CC[C@@H](C3(C)CC3)[C@@H]1[C@H]1CC[C@@H]3[C@@]4(C)CC[C@H](OC(=O)CC(C)(C)C(=O)O)C(C)(C)[C@@H]4CC[C@@]3(C)[C@]1(C)CC2", "strain": "92HT599", "method": "p24", "cell line": "MT-2", "setting": "40% human serum", "value": "≤0.05 µM"}
{"structure": "C=C(c1cc(C)cc(C)c1)c1c(CC)c(=O)[nH]c(=O)n1COCC#Cc1ccccc1", "strain": "IIIB", "method": "cytopathic effect / MTT", "cell line": "MT-4", "value": "0.29 µM"}
{"structure": "COC(=O)C[C@H](O)[C@@H](NC(=O)[C@H](C)NC(=O)C[C@H](O)[C@@H](NC(=O)Oc1ccccc1)C(F)(F)F)C(F)(F)F", "strain": "IIIB", "method": "RT activity", "cell line": "MT-4", "value": ">100 µg/mL"}
{"structure": "CC(C)CN(C[C@@H](O)[C@H](Cc1ccccc1)NC(=O)O[C@H]1CO[C@H]2OCC[C@H]21)S(=O)(=O)c1ccc(-c2coc(CCC(=O)O)n2)cc1", "strain": "LAI", "method": "cytopathic effect / MTT", "cell line": "MT-4", "value": "0.063 µM"}
{"structure": "C#CCOCn1c(C(=C)c2cc(C)cc(C)c2)c(CC)c(=O)[nH]c1=O", "strain": "IIIB", "method": "cytopathic effect / MTT", "changes": "RT-K103N Y181C", "cell line": "MT-4", "value": "23 µM"}
{"structure": "CSC1=NC2(C[C@@H]2c2ccccc2)C(=O)N1C(C)=O", "strain": "NDK", "method": "MTT", "cell line": "MT-4/C8166 + MT-4", "value": "26 µg/mL"}
{"structure": "Nc1nc(=O)n([C@@H]2CC[C@H](CO)O2)cc1F", "strain": "RF", "method": "p24", "cell line": "C8166", "value": "0.026 µM"}
{"structure": "CC(C)C[C@H](NC(=O)CCCCCCCNC(=O)[C@]12CCC(C)(C)C[C@H]1C1=CC[C@@H]3[C@@]4(C)CC[C@H](O)C(C)(C)[C@@H]4CC[C@@]3(C)[C@]1(C)CC2)[C@@H](O)CC(=O)O", "strain": "NL4-3", "method": "luciferase / entry", "cell line": "TZM-bl", "value": "40 µM"}
{"structure": "CC(C)CN(C[C@@H](O)[C@H](Cc1ccccc1)NC(=O)O[C@H]1CO[C@H]2OCC[C@H]21)S(=O)(=O)c1ccc(-c2cn3ccsc3n2)cc1", "strain": "LAI", "method": "cytopathic effect / MTT", "cell line": "MT-4", "value": "0.025 µM"}
{"structure": "CC(C)CC(=O)N[C@H](C(=O)N[C@H](C(=O)N[C@H]([C@@H](O)CC(=O)N[C@@H](C)C(=O)N[C@H]([C@@H](O)CC(=O)O)C(F)(F)F)C(F)(F)F)C(C)C)C(C)C", "strain": "IIIB", "method": "RT activity", "cell line": "MT-4", "value": ">10 µg/mL"}
{"structure": "O=C(O)C[C@H]1C(=O)O[C@H]2[C@H](OC(=O)c3cc(O)c(O)c(O)c3)[C@@H](OC(=O)c3cc(O)c(O)c4c3[C@H]1[C@H](O)C(=O)O4)[C@H](OC(=O)c1cc(O)c(O)c(O)c1)O[C@@H]2COC(=O)c1cc(O)c(O)c(O)c1", "strain": "IIIB", "method": "p24", "cell line": "H9", "value": "1 µg/mL"}
{"structure": "Cc1cc(C)c(Nc2ccnc(Nc3ccc(C#N)cc3)n2)c(C)c1", "strain": "LAI", "value": "0.0009 µM"}
{"structure": "Cc1cn(CCCC(O)CF)c(=O)[nH]c1=O", "strain": "IIIB", "method": "cytopathic effect", "cell line": "CEM", "value": ">100 µg/mL"}
{"structure": "CCOCn1c(Cc2ccccc2)c(C(C)C)c(=O)[nH]c1=O", "strain": "IIIB", "method": "cytopathic effect / MTT", "changes": "RT-Y181C", "cell line": "MT-4", "value": "44 µM"}
{"structure": "CC(C)C1=C2[C@H]3CC[C@@H]4[C@@]5(C)CC[C@H](OC(=O)[C@H]6C[C@@H](C(=O)O)C6(C)C)C(C)(C)[C@@H]5CC[C@@]4(C)[C@]3(C)CC[C@@]2(CCNCc2ccccc2)CC1=O", "strain": "92HT599", "method": "p24 / ELISA", "cell line": "MT-2", "value": "<1 µM"}
{"structure": "C=C(c1cc(C)cc(C)c1)c1c(CC)c(=O)[nH]c(=O)n1COCC", "strain": "IIIB", "method": "cytopathic effect / MTT", "changes": "RT-K103N Y181C", "cell line": "MT-4", "value": "29 µM"}
{"structure": "Nc1ncn([C@@H]2CC[C@H](CO)O2)c(=O)n1", "strain": "RF", "method": "MTT", "cell line": "MT-4", "value": ">471 µM"}
{"structure": "CC(C)C1=C2[C@H]3CC[C@@H]4[C@@]5(C)CC[C@H](OC(=O)[C@H]6C[C@@H](C(=O)O)C6(C)C)C(C)(C)[C@@H]5CC[C@@]4(C)[C@]3(C)CC[C@@]2(CC(=O)NCC(C)(C)NC(=O)c2ccc(Cl)cc2OCCN2CCOCC2)CC1=O", "strain": "92HT599", "method": "p24 / ELISA", "cell line": "MT-2", "value": "<1 µM"}
{"structure": "C#CCOCn1c(C(=C)c2ccccc2)c(CC)c(=O)[nH]c1=O", "strain": "IIIB", "method": "cytopathic effect / MTT", "cell line": "MT-4", "value": "1.5 µM"}

ECn is the concentration giving n% inhibition of infection, replication or growth.